Compound potency records, mixed from different reports. Data source: NIAID ChemDB in PubChem.

All rows: growth or infection tests; species: Aspergillus fumigatus; endpoint: MIC50

Neighbouring rows are from separate reports.

compound | strain | result
COC(=O)[C@H]1[C@@H]2C[C@@H](O[C@@H]3O[C@H](C)[C@@H](O)[C@H](N)[C@@H]3O)/C=C/C=C/C=C/C=C/C=C/C=C/C=C/[C@H](C)[C@@H](O)[C@H](C)[C@H](C)OC(=O)C[C@H](O)C[C@H](O)[C@@H](O)CC[C@H](O)C[C@H](O)C[C@](O)(C[C@@H]1O)O2 | 35 isolates | 1 µg/mL
C[C@H]1[C@H](O)[C@@H](C)/C=C/C=C/C=C/C=C/C=C/C=C/C=C/[C@H](O[C@@H]2O[C@H](C)[C@@H](O)[C@H](N)[C@@H]2O)C[C@@H]2O[C@](O)(C[C@@H](O)C[C@@H](O)CC[C@H](O)[C@@H](O)C[C@@H](O)CC(=O)O[C@H]1C)C[C@H](O)[C@H]2C(=O)O | 29 isolates | 0.5 µg/mL
CC(=O)N1CCN(c2ccc(OC[C@H]3CO[C@](Cn4ccnc4)(c4ccc(Cl)cc4Cl)O3)cc2)CC1 | 25 isolates | 8 µg/mL
CCN1CCC(O)(/C=C/c2ccc(Cl)cc2)C(C(=O)/C=C/c2ccc(Cl)cc2)C1 | 28 strains (itraconazole-resistant) | 5.84 µg/mL
CCC(C)n1ncn(-c2ccc(N3CCN(c4ccc(OC[C@H]5CO[C@](Cn6cncn6)(c6ccc(Cl)cc6Cl)O5)cc4)CC3)cc2)c1=O | 256 isolates | 1 µg/mL
CCC(C)n1ncn(-c2ccc(N3CCN(c4ccc(OC[C@H]5CO[C@](Cn6cncn6)(c6ccc(Cl)cc6Cl)O5)cc4)CC3)cc2)c1=O | 25 isolates | 1 µg/mL
CCC(C)n1ncn(-c2ccc(N3CCN(c4ccc(OC[C@H]5CO[C@](Cn6cncn6)(c6ccc(Cl)cc6Cl)O5)cc4)CC3)cc2)c1=O | - | 0.05 µg/mL
C[C@H]1[C@H](O)[C@@H](C)/C=C/C=C/C=C/C=C/C=C/C=C/C=C/[C@H](O[C@@H]2O[C@H](C)[C@@H](O)[C@H](N)[C@@H]2O)C[C@@H]2O[C@](O)(C[C@@H](O)C[C@@H](O)CC[C@H](O)[C@@H](O)C[C@@H](O)CC(=O)O[C@H]1C)C[C@H](O)[C@H]2C(=O)O | 25 isolates | 0.5 µg/mL
C[C@H]1[C@H](O)[C@@H](C)/C=C/C=C/C=C/C=C/C=C/C=C/C=C/[C@H](O[C@@H]2O[C@H](C)[C@@H](O)[C@H](N)[C@@H]2O)C[C@@H]2O[C@](O)(C[C@@H](O)C[C@@H](O)CC[C@H](O)[C@@H](O)C[C@@H](O)CC(=O)O[C@H]1C)C[C@H](O)[C@H]2C(=O)O | 256 isolates | 1 µg/mL
C[C@H]1[C@H](O)[C@@H](C)/C=C/C=C/C=C/C=C/C=C/C=C/C=C/[C@H](O[C@@H]2O[C@H](C)[C@@H](O)[C@H](N)[C@@H]2O)C[C@@H]2O[C@](O)(C[C@@H](O)C[C@@H](O)CC[C@H](O)[C@@H](O)C[C@@H](O)CC(=O)O[C@H]1C)C[C@H](O)[C@H]2C(=O)O | - | 0.5 µg/mL
Nc1[nH]c(=O)ncc1F | 12 strains | >128 µg/mL
CCC(C)n1ncn(-c2ccc(N3CCN(c4ccc(OC[C@H]5CO[C@](Cn6cncn6)(c6ccc(Cl)cc6Cl)O5)cc4)CC3)cc2)c1=O | 3 clinical isolates | 1 µg/mL
C[C@H]1[C@H](O)[C@@H](C)/C=C/C=C/C=C/C=C/C=C/C=C/C=C/[C@H](O[C@@H]2O[C@H](C)[C@@H](O)[C@H](N)[C@@H]2O)C[C@@H]2O[C@](O)(C[C@@H](O)C[C@@H](O)CC[C@H](O)[C@@H](O)C[C@@H](O)CC(=O)O[C@H]1C)C[C@H](O)[C@H]2C(=O)O | 12 isolates | 0.25 µg/mL
C[C@@H](c1ncncc1F)[C@](O)(Cn1cncn1)c1ccc(F)cc1F | 314 isolates | 0.5 µg/mL
C[C@H]1[C@H](O)[C@@H](C)/C=C/C=C/C=C/C=C/C=C/C=C/C=C/[C@H](O[C@@H]2O[C@H](C)[C@@H](O)[C@H](N)[C@@H]2O)C[C@@H]2O[C@](O)(C[C@@H](O)C[C@@H](O)CC[C@H](O)[C@@H](O)C[C@@H](O)CC(=O)O[C@H]1C)C[C@H](O)[C@H]2C(=O)O | 62 isolates | 0.25 µg/mL
CCCCCOc1ccc(-c2cc(-c3ccc(C(=O)N[C@H]4C[C@@H](O)[C@@H](O)NC(=O)[C@@H]5[C@@H](O)[C@@H](C)CN5C(=O)[C@H]([C@H](O)CC(N)=O)NC(=O)[C@H]([C@H](O)[C@@H](O)c5ccc(O)c(OS(=O)(=O)O)c5)NC(=O)[C@@H]5C[C@@H](O)CN5C(=O)[C@H]([C@@H](C)O)NC4=O)cc3)no2)cc1 | 17 isolates | ≤0.0078 µg/mL
CC[C@@H]([C@H](C)O)n1ncn(-c2ccc(N3CCN(c4ccc(OC[C@@H]5CO[C@@](Cn6cncn6)(c6ccc(F)cc6F)C5)cc4)CC3)cc2)c1=O | - | 0.125 µg/mL
CC(=O)OCC1C=C(c2ccc(Br)cc2)C(=O)O1 | 12 isolates | 1 µg/mL
CCC(C)CC(C)CCCCCCCCC(=O)N[C@H]1C[C@@H](O)[C@H](NCCN)NC(=O)[C@@H]2[C@@H](O)CCN2C(=O)[C@H]([C@H](O)CCN)NC(=O)[C@H]([C@H](O)[C@@H](O)c2ccc(O)cc2)NC(=O)[C@@H]2C[C@@H](O)CN2C(=O)[C@H]([C@@H](C)O)NC1=O | 256 isolates | 0.03 µg/mL
CCC(C)n1ncn(-c2ccc(N3CCN(c4ccc(OC[C@H]5CO[C@](Cn6cncn6)(c6ccc(Cl)cc6Cl)O5)cc4)CC3)cc2)c1=O | 17 isolates | 0.13 µg/mL
C[C@H]1[C@H](O)[C@@H](C)/C=C/C=C/C=C/C=C/C=C/C=C/C=C/[C@H](O[C@@H]2O[C@H](C)[C@@H](O)[C@H](N)[C@@H]2O)C[C@@H]2O[C@](O)(C[C@@H](O)C[C@@H](O)CC[C@H](O)[C@@H](O)C[C@@H](O)CC(=O)O[C@H]1C)C[C@H](O)[C@H]2C(=O)O | 35 isolates | 1 µg/mL
C[C@H]1[C@H](O)[C@@H](C)/C=C/C=C/C=C/C=C/C=C/C=C/C=C/[C@H](O[C@@H]2O[C@H](C)[C@@H](O)[C@H](N)[C@@H]2O)C[C@@H]2O[C@](O)(C[C@@H](O)C[C@@H](O)CC[C@H](O)[C@@H](O)C[C@@H](O)CC(=O)O[C@H]1C)C[C@H](O)[C@H]2C(=O)O | 314 isolates | 0.25 µg/mL
C[C@@H](c1ncncc1F)[C@](O)(Cn1cncn1)c1ccc(F)cc1F | - | 0.25 µg/mL
C[C@@H](c1ncncc1F)[C@](O)(Cn1cncn1)c1ccc(F)cc1F | 25 isolates | 0.12 µg/mL
CCC(C)CC(C)CCCCCCCCC(=O)N[C@H]1C[C@@H](O)[C@H](NCCN)NC(=O)[C@@H]2[C@@H](O)CCN2C(=O)[C@H]([C@H](O)CCN)NC(=O)[C@H]([C@H](O)[C@@H](O)c2ccc(O)cc2)NC(=O)[C@@H]2C[C@@H](O)CN2C(=O)[C@H]([C@@H](C)O)NC1=O | 62 isolates | 0.5 µg/mL
CC[C@@H]([C@H](C)O)n1ncn(-c2ccc(N3CCN(c4ccc(OC[C@@H]5CO[C@@](Cn6cncn6)(c6ccc(F)cc6F)C5)cc4)CC3)cc2)c1=O | 12 strains | 0.12 µg/mL
C[C@@H](c1ncncc1F)[C@](O)(Cn1cncn1)c1ccc(F)cc1F | 150 clinical isolates | 0.5 µg/mL
C/C=C/CN=C(N)NCCCCCCCN1CCCCCCCCN=C(N)NC1=O | - | 36 µM

Again, the opening 3 rows:

compound | strain | result
COC(=O)[C@H]1[C@@H]2C[C@@H](O[C@@H]3O[C@H](C)[C@@H](O)[C@H](N)[C@@H]3O)/C=C/C=C/C=C/C=C/C=C/C=C/C=C/[C@H](C)[C@@H](O)[C@H](C)[C@H](C)OC(=O)C[C@H](O)C[C@H](O)[C@@H](O)CC[C@H](O)C[C@H](O)C[C@](O)(C[C@@H]1O)O2 | 35 isolates | 1 µg/mL
C[C@H]1[C@H](O)[C@@H](C)/C=C/C=C/C=C/C=C/C=C/C=C/C=C/[C@H](O[C@@H]2O[C@H](C)[C@@H](O)[C@H](N)[C@@H]2O)C[C@@H]2O[C@](O)(C[C@@H](O)C[C@@H](O)CC[C@H](O)[C@@H](O)C[C@@H](O)CC(=O)O[C@H]1C)C[C@H](O)[C@H]2C(=O)O | 29 isolates | 0.5 µg/mL
CC(=O)N1CCN(c2ccc(OC[C@H]3CO[C@](Cn4ccnc4)(c4ccc(Cl)cc4Cl)O3)cc2)CC1 | 25 isolates | 8 µg/mL

An empty or dashed field is not shown. A number after MIC or MFC names an inhibition level or a share of isolates.